# Measurements from PubChem BioAssay AID1899 (The Scripps Research Institute Molecular Screening Center, 2009).
# Only a part is listed here, and it is no random draw. Calls of active or inactive are those of the source.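 Rule for the calls: active = inhibition above the mean of all tested compounds plus 3 SD, set per screening campaign (cut at about 45% in these data); inactive = the rest.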
# Test system: HCV core protein (residues 1-106) dimerization
# Test: inhibitors of HCV core protein dimerization, primary screen, biochemical, TR-FRET, high-throughput (AID 1899)
# Conditions: TR-FRET GST/Flag-core106 dimerization, 1536-well; at 5 µM; active compounds read high
# Method in brief: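 assay system = GST-tagged and Flag-tagged HCV core protein residues 1-106 | controls = unlabelled core106 and no-GST-core106 wells | incubation = compound-protein-antibody incubation 4 h at 22.5 °C | probe or stimulus = Eu donor and XL665 acceptor anti-tag antibodies | read-out = % inhibition based on acceptor/donor emission ratio | signal = TR-FRET 671 and 617 nm emission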
row,SMILES,inhibition
1,Cc1cc(SC(NC=O)C(Cl)(Cl)Cl)ncn1 (stereo unspecified),inactive: -13.2%
2,O=P(Nc1ccccn1)(c1cccc2ccccc12)c1cccc2ccccc12,inactive: 15.4%
3,CCOC(=O)Nc1cccc([As](=O)(O)O)c1,inactive: -3.28%
4,Cc1cc(SC(NC(=O)c2ccccc2)C(Cl)(Cl)Cl)nc(C(C)C)n1 (stereo unspecified),inactive: 0.94%
5,CCOC(=O)Nc1ccc([As](=O)(O)O)c(O)c1,inactive: -0.43%
6,CCC(C)N(CC(C)C)C(=S)SC(NC(C)=O)C(Cl)(Cl)Cl (stereo unspecified),inactive: 2.24%
7,CCOC(=O)c1ccc(NC(=O)C(C)(CCl)SC)cc1 (stereo unspecified),inactive: -13.1%
8,O=C(OC1CN2CCC1CC2)c1cccc([N+](=O)[O-])c1 (stereo unspecified),inactive: -1.59%
9,O=C(Nc1ccncc1[N+](=O)[O-])c1ccc([N+](=O)[O-])cc1[N+](=O)[O-],inactive: -2.73%
10,O=C(COc1ccccc1)OC1CN2CCC1CC2 (stereo unspecified),inactive: -5.29%
11,COP1(=S)c2c(C)nn(CCC#N)c2N=C(c2ccc(F)cc2)N1C (stereo unspecified),inactive: -10.2%
12,COc1ccc(N/C(=N/P(=O)(N2CCOCC2)N2CCOCC2)N2CCOCC2)cc1,inactive: 2.82%
13,COc1cc(I)ccc1[As](=O)(O)O,inactive: -2.62%
14,COc1ccc2nc(NP(=O)(c3ccccc3)c3ccccc3)sc2c1,inactive: 1.68%
15,Cc1cc(=O)[nH]c(N[N+](=O)[O-])n1,inactive: -2.97%
16,O=C(OC1CN2CCC1CC2)C12CC3CC(CC(C3)C1)C2 (stereo unspecified),inactive: -9.83%
17,Cc1c2c(nc3ccccc13)SC(C(Cl)Cl)C2 (stereo unspecified),inactive: 11.2%
18,O=[N+]([O-])c1cc([N+](=O)[O-])c(-c2ccn[nH]2)s1,inactive: -5.09%
19,CC(C)NC(=O)NP(=O)(Oc1ccccc1)Oc1ccccc1,inactive: -1.08%
20,CCN(CC)C(=S)SC(NC=O)C(Cl)(Cl)Cl (stereo unspecified),inactive: -1.75%
21,CC(C)c1ccc(OP(=O)(Nc2ccccn2)Oc2ccccc2F)cc1 (stereo unspecified),inactive: 2.95%
22,ClCCSc1nnc(-c2cccnc2)o1,inactive: -1.92%
23,Cc1ccc2nc3c(c(C)c2c1)CC(C(Cl)Cl)S3 (stereo unspecified),inactive: 14.1%
24,Cc1ccc(OP(=O)(Nc2ccc([N+](=O)[O-])cn2)Oc2ccc(C)cc2)cc1,inactive: 12.4%
25,C[As](=O)(O)c1cccc(C(=O)O)c1,inactive: -18.9%
26,O=[As](O)(c1ccc(O)cc1)c1ccccc1O,inactive: 0.38%

row,SMILES,inhibition
1,CN(C(=O)Cc1ccc(Cl)c(Cl)c1)[C@H]1CC[C@@]2(CCCO2)C[C@@H]1N1CCCC1,inactive: 3.19%
2,O=[N+]([O-])c1ccc2c(c1)nnn2O,inactive: 0.68%
3,CN(C)C(=O)c1cc([N+](=O)[O-])cc2c1-c1c(cc([N+](=O)[O-])cc1[N+](=O)[O-])C2=O,inactive: -26.9%
4,CN(C(=O)Cc1ccccc1)[C@@H]1CC[C@]2(CCCO2)C[C@H]1N1CCCC1,inactive: -6.76%
5,CCOP1(=S)c2c(C)nn(CCC#N)c2N=C(c2ccc(F)cc2)N1C (stereo unspecified),inactive: -2.12%
6,N#CCCN(C(=O)COC(=O)C(O)(c1ccccc1)c1ccccc1)c1ccc(F)cc1,inactive: 1.53%
7,NC(=O)Nc1ccc([As](=O)(O)O)cc1,inactive: -11.6%
8,O=C(O)COc1ccc([As](=O)(O)O)cc1[N+](=O)[O-],inactive: -16.9%
9,Nc1ccccc1[As](=O)(O)c1ccccc1,inactive: -0.48%
10,CS(=O)(=O)c1cc([N+](=O)[O-])c2no[n+]([O-])c2c1,inactive: -7.41%
11,O=P(Nc1nccs1)(Oc1ccccc1)Oc1ccccc1,inactive: -10.1%
12,O=P(Nc1nccs1)(c1ccccc1)c1nc2ccccc2s1 (stereo unspecified),inactive: 0.37%
13,CCOP1(=S)c2c(C)nn(CCC#N)c2N=C(c2ccccc2F)N1C (stereo unspecified),inactive: -6.96%
14,CCOP(=O)(Nc1cccc2ccccc12)OCC,inactive: -1.07%
15,COc1cc(C2NCCC3(OCCO3)C2(C)C)cc(OC)c1OC (stereo unspecified),inactive: -0.64%
16,CCCOP(=S)(Nc1nc(N)cc(=O)[nH]1)OCCC,inactive: 8.87%
17,Cc1ccc(NCCc2c([N+](=O)[O-])cc([N+](=O)[O-])cc2[N+](=O)[O-])cc1,inactive: 4.12%
18,Nc1cccc2c([As](=O)(O)O)cccc12,inactive: 0.18%
19,Cc1cccc(OCC(=O)OC2CN3CCC2CC3)c1 (stereo unspecified),inactive: -3.54%
20,O=[As](O)(c1cccc(O)c1)c1cccc(O)c1,inactive: 0.04%
21,CS(=O)(=O)c1ccc(Cl)c(NC(=O)COC(=O)C(O)(c2ccccc2)c2ccccc2)c1,inactive: 5.15%
22,O=[As](O)(O)c1cccnc1,inactive: -2.46%
23,COc1cc(C(=O)NCC2(N3CCOCC3)CCCCC2)cc(Cl)c1OC(C)C,inactive: 2.55%
24,O=C(OC1CN2CCC1CC2)c1ccc(Cl)cc1 (stereo unspecified),inactive: 0.81%
25,CC1(CBr)Cn2c(nc3ccccc3c2=O)S1 (stereo unspecified),inactive: -4.52%
26,O=[As](O)(c1ccccc1Br)c1ccccc1Br,inactive: -1.49%

row,SMILES,inhibition
1,CN(C(=O)Cc1ccc(Cl)c(Cl)c1)[C@@H]1CCCC[C@H]1N1CCCC1,inactive: -2.63%
2,CC(C)/C=N\N=C(\N)N[N+](=O)[O-],inactive: -1.51%
3,COc1ccccc1CNC(=O)COC(=O)C(O)(c1ccccc1)c1ccccc1,inactive: 1.16%
4,CC(C)(C)C(=O)NC(Sc1ncccn1)C(Cl)(Cl)Cl (stereo unspecified),inactive: -1.17%
5,Clc1n[nH]nc1-c1nn[nH][15n]1,inactive: -2.52%
6,CCOP(=O)(Nc1ccc(C)cn1)OCC,inactive: -15.9%
7,CN(CCCl)Cc1cc(Cl)c(NC2=NCCN2)c(Cl)c1,inactive: 5.42%
8,CCOP(=O)(NC(=NC(C)c1ccccc1)NC(C)c1ccccc1)OCC (stereo unspecified),inactive: -4.57%
9,CCC1=CC2Cc3nc4ccc(Cl)cc4c(N)c3C(C1)C2 (stereo unspecified),inactive: 2.78%
10,O=P1(Nc2ccccn2)COc2ccccc2OC1,inactive: -3.03%
11,Cc1ccc(OCC(=O)OC2CN3CCC2CC3)cc1 (stereo unspecified),inactive: -9.84%
12,O=[As](O)(c1cccs1)c1cccs1,inactive: -8.99%
13,O=P1(Nc2ccc(Br)cn2)COc2ccccc2OC1,inactive: -4.6%
14,Nc1cccc([As](=O)(O)c2ccccc2)c1,inactive: -5.06%
15,O=P1(Nc2ncccn2)COc2ccccc2OC1,inactive: -1.91%
16,O=C(/C=C/c1ccccc1)OC1CN2CCC1CC2 (stereo unspecified),inactive: 3.06%
17,CN(C)C1(CNC(=O)c2ccc(S(C)(=O)=O)cc2)CCCCC1,inactive: 2.12%
18,Cc1ccc(C(=O)OC2CN3CCC2CC3)cc1 (stereo unspecified),inactive: 2.47%
19,CC1CCC(C(C)C)C(OP(=O)(Nc2ccccn2)c2ccccc2)C1 (stereo unspecified),inactive: 1.79%
20,Cc1nn(-c2ccccc2)c2c1P(=O)(N1CCOCC1)N(C)C(c1ccccc1)=N2 (stereo unspecified),inactive: -0.09%
21,C(Cc1nn[nH]n1)Cc1nn[nH]n1,inactive: -0.77%
22,Nc1ccc([As](=O)(O)c2ccc([N+](=O)[O-])cc2)cc1,inactive: 0.97%
23,O=C(OC1CN2CCC1CC2)c1cccc(Cl)c1 (stereo unspecified),inactive: 1.64%
24,CC(=O)NC(SC(=S)N(C)C)C(Cl)(Cl)Cl (stereo unspecified),inactive: -1.03%
25,O=[N+]([O-])c1ncn(CCn2cnc([N+](=O)[O-])n2)n1,inactive: -1.92%
26,O=[N+]([O-])c1ccc(O)c(/C=N/Nc2ccc([N+](=O)[O-])cc2[N+](=O)[O-])c1,inactive: -8.56%

row,SMILES,inhibition
1,O=[As](O)(c1ccccc1)c1ccc(O)cc1,inactive: 0.87%
2,C[C@H]1OP(=O)(Oc2ccccc2)[C@H](O)[C@H](O)[C@H]1N=[N+]=[N-] (stereo partly specified),inactive: -2.06%
3,O=P(Nc1nc2ccccc2s1)(c1ccccc1)c1ccccc1,inactive: -0.63%
4,CN(C)C1(CNC(=O)c2ccc(Cl)c(S(N)(=O)=O)c2)CCCCC1,inactive: 2.68%
5,O=P(Nc1ccccn1)(c1ccc(Br)cc1)c1ccc(Br)cc1,inactive: 1.99%
6,c1nnnn1CCn1cnnn1,inactive: -9.05%
7,O=P(Nc1nccs1)(c1ccccc1)c1ccccc1,inactive: -2.83%
8,CC(C)C(=O)NC(Sc1ccccc1)C(Cl)(Cl)Cl (stereo unspecified),inactive: -6.87%
9,CC(=O)Nc1ccc(Oc2c([N+](=O)[O-])cc([N+](=O)[O-])cc2[N+](=O)[O-])cc1,inactive: 1.96%
10,CC(=O)Nc1ccc([As](=O)(O)O)c(O)c1,inactive: -2.22%
11,CC(=O)c1ccc(N2CC2c2ccncc2)cc1 (stereo unspecified),inactive: -0.38%
12,C[C@H]1OP(=O)(Oc2ccccc2)C[C@@H]2O[C@@H]21 (stereo partly specified),inactive: 2.88%
13,C[C@@H]1C=CCP(=O)(Oc2ccccc2)O1 (stereo partly specified),inactive: -8.33%
14,CC(C)(C)C(=O)NC(Sc1ccccc1)C(Cl)(Cl)Cl (stereo unspecified),inactive: 2.69%
15,CCOc1ccc(C2=NCC(CBr)S2)cc1 (stereo unspecified),inactive: 1.04%
16,O=P1(Nc2nc3ccc(Cl)cc3s2)COc2ccccc2O1 (stereo unspecified),inactive: -2.02%
17,CN(C)C(=O)Oc1noc2ccccc12,inactive: -2.25%
18,Cc1ccccc1OP(=O)(Nc1ccccn1)Oc1ccccc1C,inactive: 8.22%
19,CC(=O)NC(SC(=S)N(CC(C)C)CC(C)C)C(Cl)(Cl)Cl (stereo unspecified),inactive: -0.64%
20,Cc1ccc(OP(=O)(Nc2ccccn2)Oc2ccc(C)cc2)cc1,inactive: 4.92%
21,COC(=O)c1cc2c(s1)N=C(c1ccccc1)N(C)P2(=O)N1CCOCC1 (stereo unspecified),inactive: -5.73%
22,CCC(=O)N1C2C3N(C(=O)CC)C1C1N(C(=O)CC)C(C(N1C(=O)CC)N3C(=O)CC)N2C(=O)CC,inactive: -4.41%
23,O=C(OC1CN2CCC1CC2)c1ccccc1 (stereo unspecified),inactive: -2.77%
